Experiment [1] deals with Pyricularia grisea. As to the kind of experiment: Induction of cyanide-resistant respiration in Magnaporthe grisea mycelium assessed as rate of oxygen consumption at 100 mg/L by oxygen electrode recording analysis in presence of 2 mM mitochondrial alternative oxidase inhibitor, SHAM.
The test system of experiment [2] is Pyricularia grisea. As to the kind of experiment: Induction of cyanide-resistant respiration in Magnaporthe grisea mycelium assessed as recovery of rate of oxygen consumption at 100 mg/L by oxygen electrode recording analysis in presence of 1 mM cytochrome-C oxidase inhibitor, KCN.
Experiment [3] has as its system Pyricularia grisea. The experiment is described as follows: Induction of cyanide-resistant respiration in Magnaporthe grisea mycelium assessed as recovery of rate of oxygen consumption at 100 mg/L after 3 to 36 hr by oxygen electrode recording analysis.
In experiment [4] the test system is Pyricularia grisea. The experiment is described as follows: Induction of cyanide-resistant respiration in Magnaporthe grisea mycelium assessed as recovery of rate of oxygen consumption at 10 uM by oxygen electrode recording analysis.

SMILES strings stand for the structures. Active and inactive are the calls of the source. The rule behind the calls is not given here.

In the case of `C=CCc1ccccc1O` [2-ALLYLPHENOL], the outcome in the experiment on Pyricularia grisea [1] was inactive. For the same compound, the outcome with Pyricularia grisea [2] and with Pyricularia grisea [3] was Active.
For the compound `CCCCCC[C@H]1C(=O)O[C@H](C)[C@H](NC(=O)c2cccc(NC=O)c2O)C(=O)O[C@@H](C)[C@@H]1OC(=O)CC(C)C` [ANTIMYCIN A], the outcome in the experiment on Pyricularia grisea [4] was Active.

(Values after ChEMBL document CHEMBL3045109, “Inhibitory effect of bionic fungicide 2-allylphenol on Botrytis cinerea (Pers. ex Fr.) in vitro” (Pest Manag Sci, 2009).)
